Laboratory results published in patent US3984481A, “Bis-2-substituted-thiovinyl sulfones” (Chevron Research Company, priority 1976, dated 1976).

Legend:
Test in all cases: Mycelial inhibition test
Conditions in all cases: 25°C, 24 hours, 500 ppm acetone solution sprayed
Aspergillus niger = tested on: Aspergillus niger
Pythium ultimum = tested on: Pythium ultimum
Fusarium moniloforma = tested on: Fusarium moniloforma
Botrytis cinerea = tested on: Botrytis cinerea
Rhizoctonia solani = tested on: Rhizoctonia solani

Compound: O=S(=O)(C(Cl)CSc1ccc(Cl)cc1)C(Cl)CSc1ccc(Cl)cc1 (centres unmarked)
- Mycelia Inhibition, micrograms/cm^2 for 99% control (Aspergillus niger): 1.3 micrograms/cm^2
- Mycelia Inhibition, micrograms/cm^2 for 99% control (Pythium ultimum): 0.65 micrograms/cm^2
- Mycelia Inhibition, micrograms/cm^2 for 99% control (Fusarium moniloforma): 1.3 micrograms/cm^2
- Mycelia Inhibition, micrograms/cm^2 for 99% control (Botrytis cinerea): 1.1 micrograms/cm^2
- Mycelia Inhibition, micrograms/cm^2 for 99% control (Rhizoctonia solani): 1.5 micrograms/cm^2
